A mixed list of measured activities; the numbers were collected in NIAID ChemDB.

Common to all: growth or infection tests; species: HIV-1; measure: EC50

Blank or dashed fields: not listed here. Conditions beyond the fields shown may differ between rows. a–b is a range or a potency band. ECn: concentration that inhibits the pathogen or its effect by n%.

structure	cell line	mutations	read by	strain	result
CC(C)C#C[C@]1(C(F)(F)F)OCC(=O)Nc2ccc(Cl)cc21	MT-2			RF	<0.0097 µM
Cc1cc2[nH]cnc2cc1NC(=O)COc1ccc(Cl)cc1C(=O)c1cc(F)cc(C(F)(F)F)c1	HeLa + HELA CD4+	RT-V106A Y181C	β-galactosidase	HXB2	0.101–1 µM
CN(C)CCCN=C(c1ccccc1)N1CCN(C(=O)C(=O)c2c[nH]c3cccc(F)c23)CC1	HeLa(CD4+) + HeLa		luciferase	Luciferase reporter virus	>0.5 µM
Cc1ccc2sn(/N=C/c3cccc(O)c3)c(=O)c2c1	MT-4	Y181C	MTT		>16 µM
O=C1Nc2ccc(Cl)cc2[C@@](C#CC2CC2)(C(F)(F)F)N1		RT-K103N			<0.01 µM
CCNC(=O)c1ncn(-c2ncc(OC)c3c(C(=O)C(=O)N4CCN(C(=O)c5ccccc5)CC4)c[nH]c23)n1	HeLa		luciferase		≤0.0002 µM
COc1cc(/C=N/n2sc3ccc(C)cc3c2=O)ccc1O	MT-4	Y181C	MTT		>16 µM
Cc1cc(S(N)(=O)=O)ccc1NC(=O)COc1ccc(Cl)cc1C(=O)c1cc(Cl)cc(C#N)c1	HeLa + HELA CD4+	RT-K103N G190A	β-galactosidase	HXB2 (RT-K103N G190A) Recombinant	<0.01 µM
C[C@H]1CN(C(=NC#N)c2ccccc2)CCN1C(=O)C(=O)c1c[nH]c2c(-c3ccccn3)ccc(F)c12	HeLa(CD4+) + HeLa		luciferase	Luciferase reporter virus	<0.5 µM
Cc1cc(S(N)(=O)=O)ccc1NC(=O)COc1ccc(Cl)cc1C(=O)c1cc(F)cc(F)c1	HeLa + HELA CD4+	RT-V106A Y181C	β-galactosidase	HXB2	0.011–0.1 µM
N=C(c1ccccn1)N1CCN(C(=O)C(=O)c2c[nH]c3c(-n4ccnn4)ncc(F)c23)CC1	HeLa(CD4+) + HeLa		luciferase	Luciferase reporter virus	<0.5 µM
C[C@@H]1O[C@](/C=C/C2CC2)(C(F)(F)F)c2cc(F)ccc2NC1=O	MT-2			RF	<0.0076 µM
Nc1ncnc2c1ncn2[C@H]1C=C[C@@H](CO)[C@@H]1CO	MT-4		XTT	MN	4.6 µg/mL
Cc1ccc2sn(/N=C/c3ccccc3)c(=O)c2c1	MT-4		MTT		>33 µM
COc1cnc(-n2ccc(CC(O)C(C)C)n2)c2[nH]cc(C(=O)C(=O)N3CCN(C(=O)c4ccccc4)CC3)c12	HeLa		luciferase		<1 µM
Cc1cc(S(N)(=O)=O)ccc1NC(=O)COc1ccc(Cl)cc1C(=O)c1cccc(C#N)c1	HeLa + HELA CD4+	RT-K103N L100I	β-galactosidase	HXB2	<0.01 µM
CCN=C(c1ccccc1)N1CCN(C(=O)C(=O)c2c[nH]c3c(-n4ccnn4)ncc(F)c23)CC1	HeLa(CD4+) + HeLa		luciferase	Luciferase reporter virus	<0.5 µM
O=C(O)c1cc(-c2ncc(F)c3c(C(=O)C(=O)N4CCN(C(=O)c5ccccc5)CC4)c[nH]c23)n[nH]1	HeLa		luciferase		<1 µM
Cc1cc(N2CCS(=O)CC2)ccc1NC(=O)COc1ccc(Cl)cc1C(=O)c1cccs1	HeLa + HELA CD4+	RT-Y181C	β-galactosidase	HXB2	0.101–1 µM
CN(C)S(=O)(=O)/N=C(\c1ccccc1)N1CCN(C(=O)C(=O)c2c[nH]c3c(-n4ccnn4)ncc(F)c23)CC1	HeLa(CD4+) + HeLa		luciferase	Luciferase reporter virus	<0.5 µM
Cc1ccc2sn(/N=C/c3ccc4c(c3)OCO4)c(=O)c2c1	MT-4	Y181C	MTT		33 µM
Cc1cc2cn[nH]c2cc1NC(=O)COc1ccc(Cl)cc1C(=O)c1cccc(C#N)c1	HeLa + HELA CD4+		β-galactosidase	WTRVA	<0.01 µM
C[C@@H]1O[C@](C#CC2CC2)(C(F)(F)F)c2cc(F)ccc2NC1=O	MT-2			RF	<0.0052 µM
C=C(C)[C@@H]1CC[C@]2(C(=O)NCCCCCCCC(=O)N[C@@H](CC(C)C)[C@@H](O)CC(=O)O)CC[C@]3(C)[C@H](CC[C@@H]4[C@@]5(C)CC[C@H](O)C(C)(C)[C@@H]5CC[C@]43C)[C@@H]12	HeLa P4 + HeLa	GP41-K77R	syncytia	LAI	<10 µM
O=c1c2ccccc2sn1/N=C/c1ccc2c(c1)OCO2	MT-4	EFV-resistant (K103 V179D P225H)	MTT		>17 µM
CN=C(c1ccccc1)N1CCN(C(=O)C(=O)c2c[nH]c3c(-n4ccnn4)ncc(F)c23)CC1	HeLa(CD4+) + HeLa		luciferase	Luciferase reporter virus	<0.5 µM
COc1cnc(-c2cccn2C)c2[nH]cc(C(=O)C(=O)N3CCN(C(=O)c4ccccc4)CC3)c12	HeLa		luciferase		0.0002–1 µM
O=C1CO[C@](C#CC2CC2)(C(F)(F)F)c2cc(Cl)ccc2N1		RT-K103N			<1.395 µM
Cc1cc(S(N)(=O)=O)ccc1NC(=O)COc1ccc(Cl)cc1C(=O)c1cccc(C#N)n1	HeLa + HELA CD4+	RT-K103N P225H	β-galactosidase	HXB2	<0.01 µM
O=C(C(=O)N1CCN(C(=NCCOCCO)c2ccccc2)CC1)c1c[nH]c2c(-n3ccnn3)ncc(F)c12	HeLa(CD4+) + HeLa		luciferase	Luciferase reporter virus	<0.5 µM
CC[C@H]1O[C@](C#CC2CC2)(C(F)(F)F)c2cc(F)ccc2NC1=O	MT-2			RF	<0.0874 µM
N=C1Sc2ccccc2C2=NCCCN12	PBMC		MTS	92UG001	1.11 µM
Cc1ccc2sn(/N=C/c3ccccc3O)c(=O)c2c1	MT-4	EFV-resistant (K103 V179D P225H)	MTT		>30 µM
C[C@@H]1CN(C(=O)c2ccccc2)CCN1C(=O)C(=O)c1c[nH]c2c(-c3c[n+]([O-])cc(=O)[nH]3)nccc12	HeLa		luciferase		<1 µM
Cc1cc(C#N)cc(C(=O)c2cc(Cl)ccc2OCC(=O)Nc2ccc(S(N)(=O)=O)cc2C)c1	HeLa + HELA CD4+	RT-K103N G190A	β-galactosidase	HXB2 (RT-K103N G190A) Recombinant	<0.01 µM
COc1ccc(/C=N/n2sc3ccc(C)cc3c2=O)cc1	MT-4	Y181C	MTT		>55 µM
COc1cnc(-n2nc(C)cc2C)c2[nH]cc(C(=O)C(=O)N3CCN(C(=O)c4ccccc4)CC3)c12	HeLa		luciferase		<1 µM
Cc1cc(OCCCS(N)(=O)=O)ccc1NC(=O)COc1ccc(Cl)cc1C(=O)c1cc(F)cc(C(F)(F)F)c1	HeLa + HELA CD4+	RT-K103N	β-galactosidase	HXB2	<0.01 µM
COc1cnc(-n2ccc(NC(=O)C3OC3C(=O)O)n2)c2[nH]cc(C(=O)C(=O)N3CCN(C(=O)c4ccccc4)CC3)c12	HeLa		luciferase		<1 µM
Cc1ccc2sn(/N=C/c3cccc(F)c3)c(=O)c2c1	MT-4	EFV-resistant (K103 V179D P225H)	MTT		>30 µM

A second listing of 2 rows from above:

Cc1cc(N2CCS(=O)CC2)ccc1NC(=O)COc1ccc(Cl)cc1C(=O)c1cccs1 ; cell line: HeLa + HELA CD4+ ; mutations: RT-Y181C ; read by: β-galactosidase ; strain: HXB2 ; result: 0.101–1 µM
O=C(O)c1cc(-c2ncc(F)c3c(C(=O)C(=O)N4CCN(C(=O)c5ccccc5)CC4)c[nH]c23)n[nH]1 ; cell line: HeLa ; read by: luciferase ; result: <1 µM